Article PMC10491678, “Structural and functional analyses of Burkholderia pseudomallei BPSL1038 reveal a Cas-2/VapD nuclease sub-family” (Communications Biology, 2023)

Legend:
crystal structure = target: the molecule itself; experiment: crystal structure
[1] = target: the molecule itself; experiment: SEC; HiLoad 16/600 Superdex 75 pg, 25 mM Tris-HCl pH 7.5, 100 mM NaCl

| Protein | binding result (crystal structure) | stoichiometry N [1] |
| --- | --- | --- |
| recombinant BPSL1038-selenomethionine substituted protein (smBPSL1038) (natural protein, selenomethionine in place of methionine) MAGNLVIVCRDQDADAFDQLMQEYGSFQTRLSSTAWYLNMNIVPETLQEDILERVGKYTTLYIFEATSVTYNTIDSNAAETLSTLFGE | binds |  |
| recombinant native BPSL1038 protein with N-terminus 6X-His tag (rBPSL1038) (natural protein) MAGNLVIVCRDQDADAFDQLMQEYGSFQTRLSSTAWYLNMNIVPETLQEDILERVGKYTTLYIFEATSVTYNTIDSNAAETLSTLFGE |  | 2 |
